The values that follow come from US4649911A, “Small particle aerosol generator for treatment of respiratory disease including the lungs” (Baylor College of Medicine, priority 1986, dated 1987).

For this data set the following is noted: human, in vivo.

On to `NC(=O)c1ncn([C@@H]2O[C@H](CO)[C@@H](O)[C@H]2O)n1` [ribavirin], for which the clinical tolerance entry is “nausea and vomited several times”.
